# Earlier results in patent US20090178587A9, “Control of biofilms in industrial water systems” (priority 2001, published 2009).
# How the values were obtained:
# [1] = test system: biofilms consisting of a consortium of Legionella, heterotrophic bacteria and amoebae; settings: 48 hours contact; chlorine 2 to 4 ppm, BCDMH 10 ppm, glutaraldehyde 100 ppm active; result in words; cited from earlier work
# [2] = test system: biofilm-associated Legionella; settings: result in words; cited from earlier work
substance,measurement,setting,value
chlorine,efficacy against biofilm-associated heterotrophic bacteria and Legionella,[1],rapid reductions
same,effect on levels of biofilm-associated Legionella,[2],non detectable levels
